Taken from: PubChem BioAssay AID1224833 (University of Georgia, 2016)
The whole screen tested about 12,000 reagents; shown is an unselected part. About 5,600 of all reagents (46%) count as active. 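Active calls cover z-scores past 1 in both directions, so they include lowered as well as raised rotavirus replication.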 Entries without a mark were called inactive. Reagent sequences are not shown.

- Aim: 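Host factors restraining rotavirus as candidate antiviral genes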 (primary screen)
- Cells: monkey MA104 kidney cells
- Reagents: siRNA pool against human genes, 50 nM
- Timing: 48 h knock-down before infection; read 24 h after infection
- Challenge: infection with rotavirus strain RV3 two days after transfection; infectious dose for this stage not given
- Read-out: 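Rotavirus antigen per well by fluorescent immunoassay, normalised to non-targeting control wells on each plate and given as a standard z-score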
- Reading the numbers: z-score vs non-targeting control: higher = more rotavirus replication than with non-targeting control
- Active means: In these data the active calls have z-score vs non-targeting control at about -1 or lower, or at about 1 or higher
- Meaning of the calls: active = z-score beyond 1 either way; inactive = z-score within 1 of zero

Target gene | PubChem SID | z-score vs non-targeting control
COL5A3 (GeneID 50509) | SID329578797 | -0.131
MCEMP1 (GeneID 199675) | SID329583379 | -2 (active)
NLRP1 (GeneID 22861) | SID329577683 | -1.81 (active)
HNRNPD (GeneID 3184) | SID329574000 | 0.877
ATP5PB (GeneID 515) | SID329572866 | 0.467
CYP17A1 (GeneID 1586) | SID329573349 | 0.698
MED13L (GeneID 23389) | SID329577969 | 1.19 (active)
NDUFS7 (GeneID 374291) | SID329584220 | -1.9 (active)
KRT25 (GeneID 147183) | SID329582930 | 0.306
TIMM13 (GeneID 26517) | SID329578397 | 0.321
IST1 (GeneID 9798) | SID329576802 | 0.841
NCOA6 (GeneID 23054) | SID329577784 | -1.16 (active)
WIF1 (GeneID 11197) | SID329577597 | 0.635
DDX27 (GeneID 55661) | SID329579794 | -0.67
RPS3A (GeneID 6189) | SID329575186 | -0.928
GPR20 (GeneID 2843) | SID329573837 | 0.731
FADS3 (GeneID 3995) | SID329574308 | -1.27 (active)
ZNF839 (GeneID 55778) | SID329579868 | -0.871
UBAC2 (GeneID 337867) | SID329584006 | 0.484
ZBTB26 (GeneID 57684) | SID329580347 | -0.191
NYX (GeneID 60506) | SID329580481 | 0.0557
MMP28 (GeneID 79148) | SID329580848 | 1.55 (active)
ZNF16 (GeneID 7564) | SID329575858 | 0.159
RIF1 (GeneID 55183) | SID329579620 | 2.12 (active)
KMO (GeneID 8564) | SID329576177 | -1.02 (active)
COQ2 (GeneID 27235) | SID329578535 | -0.799
TCHHL1 (GeneID 126637) | SID329582555 | -0.792
SEMA6C (GeneID 10500) | SID329577201 | 0.585
NDUFB8 (GeneID 4714) | SID329574576 | -0.222
OR6Q1 (GeneID 219952) | SID329583534 | -1.47 (active)
OR11H6 (GeneID 122748) | SID329582449 | -1.4 (active)
SDF2 (GeneID 6388) | SID329575280 | -0.868
SLC37A1 (GeneID 54020) | SID329579242 | -0.583
ONECUT2 (GeneID 9480) | SID329576617 | 1.67 (active)
LTV1 (GeneID 84946) | SID329581786 | 1.47 (active)
PARD3 (GeneID 56288) | SID329580028 | -0.308
TRMT10B (GeneID 158234) | SID329583145 | -0.619
ZNF397 (GeneID 84307) | SID329581592 | 0.22
SP3 (GeneID 6670) | SID329575449 | -1 (active)
GGTLC1 (GeneID 92086) | SID329582047 | -0.257
NSFL1C (GeneID 55968) | SID329579943 | -0.536
ETFBKMT (GeneID 254013) | SID329583693 | -0.526
DCTN1 (GeneID 1639) | SID329573372 | 0.52
MTHFD1 (GeneID 4522) | SID329574503 | -0.646
SLC29A4 (GeneID 222962) | SID329583638 | 0.0358
DZIP1 (GeneID 22873) | SID329577694 | 0.192
SLC51B (GeneID 123264) | SID329582464 | -0.817
CLXN (GeneID 79645) | SID329580933 | 1.38 (active)
BRINP1 (GeneID 1620) | SID329573364 | 2.24 (active)
SH2D1B (GeneID 117157) | SID329582340 | -0.543
DBH (GeneID 1621) | SID329573365 | -1.52 (active)
RAD23B (GeneID 5887) | SID329575058 | 0.578
SPRR1A (GeneID 6698) | SID329575468 | -0.899
TMEM25 (GeneID 84866) | SID329581744 | -0.812
SDF4 (GeneID 51150) | SID329578937 | 0.149
GTPBP8 (GeneID 29083) | SID329578648 | -1.5 (active)
NFATC4 (GeneID 4776) | SID329574608 | -3.01 (active)
ZC3H8 (GeneID 84524) | SID329581646 | 0.752
RTF1 (GeneID 23168) | SID329577845 | -0.859
DNAJB4 (GeneID 11080) | SID329577525 | -2.34 (active)
EIF4B (GeneID 1975) | SID329573509 | 0.566
OSGIN2 (GeneID 734) | SID329572968 | -0.159
IL38 (GeneID 84639) | SID329581677 | -0.766
TFRC (GeneID 7037) | SID329575621 | 0.516
UPK3BL1 (GeneID 100134938) | SID329584765 | -0.952
FAM124B (GeneID 79843) | SID329581036 | 1.05 (active)
PRRC2A (GeneID 7916) | SID329575967 | -0.551
CHIC1 (GeneID 53344) | SID329579216 | -0.519
SLC24A3 (GeneID 57419) | SID329580233 | 0.417
DHRS1 (GeneID 115817) | SID329582281 | 1.41 (active)
EDC4 (GeneID 23644) | SID329578105 | 1.39 (active)
THUMPD2 (GeneID 80745) | SID329581244 | -1.37 (active)
PWWP2B (GeneID 170394) | SID329583315 | -0.95
CHGB (GeneID 1114) | SID329573159 | 1.8 (active)
ETF1 (GeneID 2107) | SID329573569 | -0.515
KPLCE (GeneID 100129271) | SID329584753 | -1.05 (active)
CTTNBP2NL (GeneID 55917) | SID329579934 | -0.54
SLC25A11 (GeneID 8402) | SID329576095 | 1.21 (active)
ANLN (GeneID 54443) | SID329579275 | -1.43 (active)
HOXA7 (GeneID 3204) | SID329574013 | 1.12 (active)
SERPINB8 (GeneID 5271) | SID329574825 | 1.23 (active)
HTN3 (GeneID 3347) | SID329574071 | -0.895
OR9K2 (GeneID 441639) | SID329584604 | -1.08 (active)
MANSC1 (GeneID 54682) | SID329579361 | 1.58 (active)
ISM2 (GeneID 145501) | SID329582891 | -1.23 (active)
SOX30 (GeneID 11063) | SID329577512 | 1.25 (active)
CLDN20 (GeneID 49861) | SID329578789 | 0.192
OR4X1 (GeneID 390113) | SID329584389 | -0.45
DRAXIN (GeneID 374946) | SID329584242 | 1.28 (active)
RER1 (GeneID 11079) | SID329577524 | -2.32 (active)
IL18BP (GeneID 10068) | SID329576945 | 0.424
F8A2 (GeneID 474383) | SID329584634 | 0.709
ZCCHC14 (GeneID 23174) | SID329577851 | -1.92 (active)
ZNF93 (GeneID 81931) | SID329581378 | -1.49 (active)
CYP3A7 (GeneID 1551) | SID329573334 | -0.147
ZNF398 (GeneID 57541) | SID329580281 | -3.26 (active)
MFAP5 (GeneID 8076) | SID329575998 | -0.938
ARL4A (GeneID 10124) | SID329576976 | -0.834
FBLN2 (GeneID 2199) | SID329573611 | 0.399
AKR7A3 (GeneID 22977) | SID329577749 | -1.43 (active)
PGLS (GeneID 25796) | SID329578163 | -6.02 (active)
GGT2P (GeneID 728441) | SID329584726 | -0.712
EEF1A2 (GeneID 1917) | SID329573489 | -1.39 (active)
MAPK1IP1L (GeneID 93487) | SID329582114 | 0.391
NGDN (GeneID 25983) | SID329578255 | -1.22 (active)
OR2T35 (GeneID 403244) | SID329584516 | -2.27 (active)
SMAD1 (GeneID 4086) | SID329574359 | -1.25 (active)
RTF2 (GeneID 51507) | SID329579097 | -0.57
USP37 (GeneID 57695) | SID329580352 | 1.06 (active)
CDSN (GeneID 1041) | SID329573125 | -2.11 (active)
FIGLA (GeneID 344018) | SID329584126 | 0.182
BEX1 (GeneID 55859) | SID329579910 | -0.75
GAGE8 (GeneID 100101629) | SID329584748 | 1.24 (active)
GSDMB (GeneID 55876) | SID329579917 | 0.419
CTAG1B (GeneID 1485) | SID329573304 | -0.451
MAGEE1 (GeneID 57692) | SID329580350 | 0.437
AGO2 (GeneID 27161) | SID329578516 | -2.51 (active)
GRM8 (GeneID 2918) | SID329573869 | 1.04 (active)
FHDC1 (GeneID 85462) | SID329581870 | -0.912
MSTN (GeneID 2660) | SID329573747 | 1.47 (active)
LRFN5 (GeneID 145581) | SID329582894 | -0.195
SRFBP1 (GeneID 153443) | SID329583086 | 1.19 (active)
ASCL4 (GeneID 121549) | SID329582428 | 2.58 (active)
STX16 (GeneID 8675) | SID329576231 | -1.31 (active)
JOSD1 (GeneID 9929) | SID329576878 | 0.595
KLHDC3 (GeneID 116138) | SID329582294 | -0.375
DCAF4L2 (GeneID 138009) | SID329582752 | -2.42 (active)
CDH16 (GeneID 1014) | SID329573115 | -0.817
BCL9 (GeneID 607) | SID329572908 | 0.203
ALDH8A1 (GeneID 64577) | SID329580647 | -0.773
BROX (GeneID 148362) | SID329582977 | -1.31 (active)
SULT1C2 (GeneID 6819) | SID329575522 | 2.25 (active)
SLC22A3 (GeneID 6581) | SID329575382 | -0.658
DEFB130A (GeneID 245940) | SID329583657 | -1.34 (active)
OR51I1 (GeneID 390063) | SID329584378 | 0.286
EMC7 (GeneID 56851) | SID329580063 | -0.488
KRTAP10-11 (GeneID 386678) | SID329584280 | -0.188
AFG2B (GeneID 79029) | SID329580811 | -1.18 (active)
ZNF669 (GeneID 79862) | SID329581046 | 1.58 (active)
CCDC12 (GeneID 151903) | SID329583057 | -2.56 (active)

8 consecutive reagents already listed:
Target gene | PubChem SID | z-score vs non-targeting control
SH2D1B (GeneID 117157) | SID329582340 | -0.543
DBH (GeneID 1621) | SID329573365 | -1.52 (active)
RAD23B (GeneID 5887) | SID329575058 | 0.578
SPRR1A (GeneID 6698) | SID329575468 | -0.899
TMEM25 (GeneID 84866) | SID329581744 | -0.812
SDF4 (GeneID 51150) | SID329578937 | 0.149
GTPBP8 (GeneID 29083) | SID329578648 | -1.5 (active)
NFATC4 (GeneID 4776) | SID329574608 | -3.01 (active)
